PSTVd stem 3 mutant pool in Nicotiana benthamiana

Values reported by Wu et al. 2024 (doi:10.1371/journal.ppat.1012142).

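Three N. benthamiana plants were inoculated with the whole mutant pool. Samples came from the inoculated region at 5 days, the leaf margin at 10 and upper systemic leaves at 12.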

The pool varies stem 3 of the PSTVd intermediate strain in the pattern GUGGUUCCGNANNCNN; wild type is GUGGUUCCGGAACCGC (upper and lower strand joined, each 5' to 3', the first 8 letters being the upper strand).

Values are reads per thousand in the sample; higher means more abundant, 0 means not found.
Each value is the mean of three plants.
"Pool" is the share in the plasmid pool used as inoculum, on the same scale.
The inoculated region was read from the minus strand, the other sites from the plus strand.
IR is the inoculated region, LM the leaf margin, Sys the systemic leaves.

| # | sequence | pool | IR | LM | Sys |
|---|---|---|---|---|---|
| 1 | GUGGUUCCGUAGUCUG | 1.11 | 1.31 | 0.0120 | 0.0205 |
| 2 | GUGGUUCCGAAUCCGU | 0.723 | 0.691 | 0.190 | 0.00615 |
| 3 | GUGGUUCCGAAUGGUA | 0.323 | 0.611 | 0.272 | 0 |
| 4 | GUGGCUCCGGAGACAA | 0.0154 | 0 | 0 | 0 |
| 5 | GUGGUUCCGGACCCAU | 1.05 | 0.915 | 0.0212 | 0 |
| 6 | GUGGUUCCGUAUUCCC | 0.908 | 0.290 | 0 | 0 |
| 7 | GUGUUUCCGAAUACGG | 0.0154 | 0 | 0 | 0 |
| 8 | GUGGUUCCGUAGACCC | 1.37 | 0.846 | 0.0212 | 0 |
| 9 | GUGGUUCCGAAAACGC | 0.616 | 0.364 | 0 | 0 |
| 10 | GUGGUUCCGCAUGCGA | 0.939 | 0.306 | 0.0189 | 0 |
| 11 | GUGGUUCCGCACUCGC | 2.31 | 0.672 | 0.201 | 0.101 |
| 12 | GUGGUUCCGAAUUCCC | 0.970 | 0.835 | 0.464 | 0 |
| 13 | GUGGUUCCGGACCCUG | 0.831 | 0.176 | 0.0120 | 0 |
| 14 | GUGGUCCCGCAGACGU | 0.0154 | 0 | 0 | 0 |
| 15 | GUGGUUCCGUAGUCUU | 0.939 | 0.863 | 0.490 | 0 |
| 16 | GUGGUACCGUAUUCGU | 0.0154 | 0 | 0 | 0 |
| 17 | GUGGUUCCGGACUCAA | 0.800 | 0.783 | 0.156 | 0 |
| 18 | GUGGUUCCGAAUGCCU | 0.523 | 0.786 | 0.154 | 0 |
| 19 | GUGGUUCCGCAUACGG | 0.677 | 0.265 | 0.00944 | 0 |
| 20 | GUGGUUCCGAUAUCAU | 0.0154 | 0.450 | 1.04 | 1.08 |
| 21 | GUGGUUCCGUAAGCCA | 1.08 | 0.566 | 0.0347 | 0 |
| 22 | GUGGUUCCGGAGCCUU | 0.831 | 0.580 | 0.0215 | 0 |
| 23 | GUGGUUCCGGAACCUA | 0.939 | 0.243 | 0.0106 | 0.0124 |
| 24 | GUGGUUCCGGAUACCU | 0.662 | 0.344 | 0 | 0 |
| 25 | GUGGUUCCGGAGUCUC | 0.769 | 0.819 | 0.191 | 0 |
| 26 | GUGGUUCCGGACCCGA | 0.877 | 0.302 | 0.0321 | 0 |
| 27 | GUGGUUCCGAAGUCAG | 1.05 | 0.905 | 0.928 | 1.05 |
| 28 | GUGGUUCCGGACCCCG | 0.754 | 0.311 | 0 | 0 |
| 29 | GUGGUUCCGGACUCAC | 0.923 | 0.647 | 0.0120 | 0 |
| 30 | GUGGUUCCGUACACGC | 0.785 | 0.336 | 0.00944 | 0.00621 |

With 27,691-54,225 reads a sample, very low values are single reads.
The authors trace changes outside the varied positions to PCR and sequencing errors or to mutation in the plant; presence does not show that a variant is infectious alone.
For reference, wild type rose from 17.3 per thousand in the pool to 330, 345, 235 (inoculated region), 794, 766, 816 (leaf margin) and 830, 792, 869 (systemic leaves).